Results of unrelated studies side by side (data: NIAID ChemDB).

Common to all: cytotoxicity tests; read-out: CC50

CCn: concentration that lowers growth or viability of the cells by n%.

compound | cells | read by | result
CCc1cn([C@H]2C[C@H](N=[N+]=[N-])[C@@H](CO)O2)c(=O)[nH]c1=O | CFU-GM | - | 1 µM
CO[C@H]1C[C@H](O[C@H]2CC[C@]3(C=O)[C@H]4CC[C@]5(C)[C@@H](C6=CC(=O)OC6)CC[C@]5(O)[C@H]4CC[C@]3(O)C2)O[C@H](C)[C@H]1O | GMK AH1 | MTT | >250 µM
C[CH2][Sn]([Cl])([Cl])[CH2]C.c1ccc(-c2nc3ccccc3[nH]2)nc1 | HFF | - | 19 µg/mL
O=C1OC(c2ccc(F)cc2)(C(Cl)c2ccccc2)c2ccccc21 | TZM-bl | MTT | 227 µM
Cc1cn([C@H]2C[C@H](NC(=O)NCCNc3ccnc4cc(Cl)ccc34)[C@H](CO[Si](c3ccccc3)(c3ccccc3)C(C)(C)C)O2)c(=O)[nH]c1=O | HeLa cells | MTT | 23.78 µM
Cc1c2ccncc2c(C)c2c1[nH]c1ccc(Cl)cc12 | VERO | - | 0.25 µg/mL
Nc1ccn([C@@H]2CS[C@H](CO)O2)c(=O)n1 | HLE | WST | >100 µM
O=C(Nc1cccc([N+](=O)[O-])c1)/C(=N/NC(=O)c1ccncc1)c1nc2ccc([N+](=O)[O-])cc2[nH]c1=O | VERO | - | >10 µg/mL
Nc1ncnc2c1ncn2[C@@H]1C=C[C@@H](O)[C@H]1O | PRK | - | 9 µg/mL
C[C@@]1(O)[C@H](O)[C@@H](CO)O[C@H]1n1ccc(N)nc1=O | HuH6 | - | >30 µM
OCCNc1ccnc2cc(Cl)ccc12 | HeLa cells | MTT | >100 µM
O=C(NC1N=C(c2ccccc2)c2cc(Cl)ccc2NC1=O)c1ccccc1[N+](=O)[O-] | VERO | - | 5 µM
CC(Cl)C1(c2ccc(Cl)cc2)OC(=O)c2ccccc21 | TZM-bl | MTT | 201 µM
[CH3][Sn]([CH3])([Br])[Br].c1ccc(-c2nc3ccccc3[nH]2)nc1 | HFF | - | 83 µg/mL
O=C(/C=C/C=C/c1ccccc1)[Se]c1ccccc1 | HLE | WST | >100 µM
CO[C@H]1/C=C/O[C@@]2(C)Oc3c(C)c(O)c4c(O)c(c5[nH]cnc5c4c3C2=O)NC(=O)/C(C)=C\C=C\[C@H](C)[C@H](O)[C@@H](C)[C@@H](O)[C@@H](C)[C@H](OC(C)=O)[C@@H]1C | VERO | - | >62.5 µg/mL
CCC[CH2][Sn]([Cl])([Cl])[Cl] | HFF | - | 39 µg/mL
Nc1ccn([C@H]2CC[C@@H](CO)O2)c(=O)n1 | BFU-E | - | 1 µM
O=C(O)/C=C/c1ccc(O)c(O)c1 | BCC-1/KMC | - | 10293 µg/mL
Cc1cc2nc3cc(C)c(N)cc3[n+](-c3ccccc3)c2cc1N.[Cl-] | VERO | - | 15.62 µg/mL
COc1ccc(C(=O)NC2N=C(c3cccc(Cl)c3)c3ccccc3NC2=O)cc1 | HEP-2 | - | 4 µM
Cn1cc(NC(=O)c2cc(NC(=O)CN=C(N)N)cn2C)c(C(=O)NCCC(=N)N)c1 | PRK | - | 40 µg/mL
C/C(=N\Nc1cc(C)c2cc(C)ccc2n1)c1ccccn1 | VERO | - | 0.43 µg/mL
NC(=O)C(c1ccccc1)(c1ccccc1)C1CCCN(CCc2ccc3c(c2)CCO3)C1 | PM1 | - | 47 µM
COC(=O)CCC(=O)O[C@H]1C[C@@H]2c3c(cc(OC)c4c5c(c(=O)oc34)C(=O)CC5)O[C@@H]2O1 | L-02 | - | 4.2 µM
C[C@H]1OC(O[C@H]2[C@@H](O)C[C@H](O[C@@]3(C)[C@@H](O)C[C@H](O[C@H]4CC[C@@]5(C)[C@H](CC[C@@H]6[C@@H]5C[C@@H](O)[C@]5(C)[C@@H](C7=CC(=O)OC7)CC[C@]65O)C4)O[C@@H]3C)O[C@@H]2C)C[C@H](O)[C@@H]1O | GMK AH1 | MTT | >25 µM
CCCCc1ccc(Nc2c[nH]c(=O)[nH]c2=O)cc1 | Huh7 cells | MTT | >50 µg/mL
CN(C)c1ccc(O)c2c1C[C@H]1C[C@H]3[C@H](N(C)C)C(=O)C(C(N)=O)=C(O)[C@@]3(O)C(=O)C1=C2O | Microglia | LDH | >30 µg/mL
CC(C)C[C@@H]1NC(=O)[C@H](Cc2c[nH]c3ccccc23)NC(=O)[C@@H](CCCCN)NC(=O)CNC(=O)[C@H](C(C)C)NC(=O)[C@@H](CC(C)C)NC1=O | Lung carcinoma cells | MTT | >30 µM
C[C@H]1O[C@@H](O[C@H]2CC[C@@]3(C)[C@H](CC[C@@H]4[C@@H]3CC[C@]3(C)[C@@H](C5=CC(=O)OC5)CC[C@]43O)C2)C[C@H](O)[C@@H]1O[C@@H]1O[C@H](CO)[C@@H](O)[C@H](O)[C@H]1O | GMK AH1 | MTT | >250 µM
O=C(/C=C/c1ccccc1)[Se]c1ccccc1 | Li-7 | WST | >100 µM
O=C1OC(C(Cl)c2ccccc2F)c2ccccc21 | TZM-bl | MTT | 119 µM
Nc1nc(=O)n([C@@H]2CC[C@H](CO)O2)cc1F | CFU-GM | - | 12 µM
O=C(NC1N=C(c2ccccc2)c2ccccc2NC1=O)c1ccccc1F | HEP-2 | - | 9.5 µM
O=C(/C=C/c1ccc(Cl)cc1)Nc1n[nH]c(-c2ccccc2)n1 | VERO Cell line | MTT | 1280 µM
Cc1ccc2c(c1)C(c1ccc(F)cc1)(C(C)Cl)OC2=O | TZM-bl | MTT | 263 µM
CC(C)C[C@@H]1NC(=O)[C@H](Cc2c[nH]c3ccccc23)NC(=O)[C@@H](CCCCN)NC(=O)[C@H](CO)NC(=O)[C@H](C(C)C)NC(=O)[C@@H](CC(C)C)NC1=O | Colorectal carcinoma | MTT | >30 µM
Cc1ccc(/C=C/C=C/C(=O)[Se]c2ccccc2)cc1 | HLE | WST | >100 µM
C[CH2][Sn]([Br])([Br])[CH2]C.c1ccc(-c2nc3ccccc3[nH]2)nc1 | HFF | - | 13 µg/mL
[Cl][Fe][Cl].c1cnc2c(c1)ccc1cccnc12 | VERO | - | 1.22 µg/mL
CC(=O)NC1NC(c2ccccc2)(c2cccc(Cl)c2)c2ccccc2NC1=O | HEP-2 | - | 3 µM
O=[n+]1c2ccccc2n([O-])c2ccccc21 | VERO | - | 30.5 µg/mL
Nc1ncnc2c1ncn2[C@@H]1O[C@H](CO)C[C@@H]1O | U373-MG | - | 37 µg/mL
CCCC(Cl)C1(c2ccc(F)cc2)OC(=O)c2ccccc21 | TZM-bl | MTT | 252 µM
Nc1ncn([C@@H]2O[C@H](CO)[C@@H](O)[C@H]2O)c(=O)n1 | Primary duck hepatocytes | - | 75 µg/mL
O=C(O)[C@H]1O[C@@H](Oc2cc3oc(-c4ccccc4)cc(=O)c3c(O)c2O)[C@H](O)[C@@H](O)[C@@H]1O | BCC-1/KMC | - | 41.1 µg/mL
CCCCCCC[CH2][Sn]([Cl])([Cl])[CH2]CCCCCCC | HFF | - | 33 µg/mL
C[C@H]1O[C@@H](O[C@H]2[C@@H](O)C[C@H](O[C@H]3[C@@H](O)C[C@H](O[C@H]4CC[C@@]5(C)[C@H](CC[C@@H]6[C@@H]5CC[C@]5(C)[C@@H](C7=CC(=O)OC7)CC[C@]65O)C4)O[C@@H]3C)O[C@@H]2C)C[C@H](O)[C@@H]1O | GMK AH1 | MTT | >25 µM
Cc1cn([C@H]2C[C@H](N=[N+]=[N-])[C@H](CO)O2)c(=O)n(Cc2cccc(Nc3ccnc4cc(Cl)ccc34)c2)c1=O | HeLa cells | MTT | >100 µM
C[C@H]1O[C@@H](O[C@H]2CC[C@]3(C=O)[C@H]4CC[C@]5(C)[C@@H](C6=CC(=O)OC6)CC[C@]5(O)[C@@H]4CC[C@]3(O)C2)C[C@H](O)[C@@H]1O | GMK AH1 | MTT | >250 µM
CCOc1ccc2nc(NC(=O)c3c/c(=N\NC(=O)C[N+](C)(C)C)c4ccc(O)cc4o3)sc2c1.[Cl-] | VERO | - | 5.32 µg/mL
O=C1O[C@@](CCl)(c2ccc(F)cc2)c2ccccc21 | TZM-bl | MTT | 72.3 µM
Nc1ncnc2c1ncn2C[C@@H](CO)OCP(=O)(O)O | Primary duck hepatocytes | - | 120 µg/mL
CC(C)(C)CC(C)(O)CN(CC(C)(O)CC(C)(C)C)C(=S)S | VERO | - | 28.4 µg/mL
COc1cc(C(=O)O)ccc1O | BCC-1/KMC | - | 1338 µg/mL
Cc1cn([C@H]2C[C@H](F)[C@@H](CO)O2)c(=O)[nH]c1=O | BFU-E | - | 1 µM
CC(=O)O[C@H]1C[C@H](O[C@H]2[C@@H](O)C[C@H](O[C@H]3[C@@H](O)C[C@H](O[C@H]4CC[C@@]5(C)[C@H](CC[C@@H]6[C@@H]5CC[C@]5(C)[C@@H](C7=CC(=O)OC7)CC[C@]65O)C4)O[C@@H]3C)O[C@@H]2C)OC(C)[C@H]1O[C@@H]1O[C@H](CO)[C@@H](O)[C@H](O)[C@H]1O | GMK AH1 | MTT | >250 µM
CO[C@H]1/C=C/O[C@@]2(C)Oc3c(C)c(O)c4c(O)c(c(/C=N/N5CCN(C)CC5)c(O)c4c3C2=O)NC(=O)/C(C)=C\C=C\[C@H](C)[C@H](O)[C@@H](C)[C@@H](O)[C@@H](C)[C@H](OC(C)=O)[C@@H]1C | Lung carcinoma cells | MTT | >30 µM
OC(c1cc(-c2ccc(Cl)c(Cl)c2)nc2ccccc12)C1CCCCN1 | VERO | - | 2 µg/mL
Nc1nc(N)c2ncn(CCOCP(=O)(O)O)c2n1 | Primary duck hepatocytes | - | 175 µg/mL
CO[C@H]1C[C@H](O[C@H]2CC[C@]3(C=O)[C@H]4CC[C@]5(C)[C@@H](C6=CC(=O)OC6)CC[C@]5(O)[C@@H]4CC[C@]3(O)C2)O[C@H](C)[C@H]1O[C@@H]1O[C@H](CO[C@@H]2O[C@H](CO)[C@@H](O)[C@H](O)[C@H]2O)[C@@H](O)[C@H](O)[C@H]1O | GMK AH1 | MTT | >250 µM
CCC1C[N+]2=C(c3cc(OC)c(OC)cc3CC2)c2c1cc1n2CCc2cc(OC)c(OC)cc2-1 | VERO | - | 21.8 µg/mL
O=C(NNC(=O)c1ccccc1S)c1ccccc1S | HuT-78 | - | >100 µM
Nc1ccn([C@@H]2CC[C@H](CO)O2)c(=O)n1 | BFU-E | - | 3 µM
Nc1ncnc2c1ncn2[C@H]1CC[C@@H](CO)O1 | Primary duck hepatocytes | - | 135 µg/mL
Cc1ccc(C(=O)N=Nc2c(Cl)c(O)c3ccccc3c2O)cc1 | VERO | - | 1.48 µg/mL
Cc1cn([C@H]2C=C[C@@H](CO)O2)c(=O)[nH]c1=O | Primary duck hepatocytes | - | 75 µg/mL
Cc1cn([C@H]2C[C@H](N=[N+]=[N-])[C@@H](CO)O2)c(=O)[nH]c1=O | M0.MO | - | 10 µg/mL
CC(=O)NC1=CC(=O)C=CC1=Nc1ccc(N(C)C)cc1 | VERO | - | 3.8 µg/mL
C[C@H]1[C@H](C)CC[C@]2(C(=O)O)CC[C@]3(C)C(=CC[C@@H]4[C@@]5(C)CC[C@H](O)C(C)(C)[C@@H]5CC[C@]43C)[C@H]12 | BCC-1/KMC | - | 14.4 µg/mL
C[C@H]1O[C@@H](O[C@H]2CC[C@@]3(C)[C@H](CC[C@@H]4[C@@H]3CC[C@]3(C)[C@@H](C5=CC(=O)OC5)CC[C@]43O)C2)C[C@H](O)[C@@H]1O | GMK AH1 | MTT | >250 µM
CCN(CC)CCNc1ccc(C)c2sc3c(OC)cccc3c(=O)c12 | VERO | - | 0.79 µg/mL
Cc1cccc(Nc2c[nH]c(=O)[nH]c2=O)c1 | Huh7 cells | MTT | >50 µg/mL
NC(=S)NNC(=O)/C(=C/c1ccc(/C=C(\NC(=O)c2ccccc2)C(=O)NNC(N)=S)cc1)NC(=O)c1ccccc1 | VERO | - | 0.2 µg/mL
Nc1ccn(C[C@@H](CO)OCP(=O)(O)O)c(=O)n1 | TR-14 | - | >200 µg/mL
CCCCOc1ccc(Nc2cn(C3C=CC(O)C3)c(=O)n(C3C=CC(O)C3)c2=O)cc1 | Vero cells | MTT | >50 µg/mL
CC(C)(C)O/N=C/c1cc(NC(=S)c2ccsc2)ccc1Cl | VERO | - | 13 µg/mL

For reference, 8 entries again:

Nc1ccn([C@@H]2CS[C@H](CO)O2)c(=O)n1 ; cells: HLE ; read by: WST ; result: >100 µM
Cc1cn([C@H]2C[C@H](F)[C@@H](CO)O2)c(=O)[nH]c1=O ; cells: BFU-E ; result: 1 µM
COC(=O)CCC(=O)O[C@H]1C[C@@H]2c3c(cc(OC)c4c5c(c(=O)oc34)C(=O)CC5)O[C@@H]2O1 ; cells: L-02 ; result: 4.2 µM
CCCCc1ccc(Nc2c[nH]c(=O)[nH]c2=O)cc1 ; cells: Huh7 cells ; read by: MTT ; result: >50 µg/mL
COc1cc(C(=O)O)ccc1O ; cells: BCC-1/KMC ; result: 1338 µg/mL
NC(=O)C(c1ccccc1)(c1ccccc1)C1CCCN(CCc2ccc3c(c2)CCO3)C1 ; cells: PM1 ; result: 47 µM
O=C(NNC(=O)c1ccccc1S)c1ccccc1S ; cells: HuT-78 ; result: >100 µM
Cc1cn([C@H]2C[C@H](N=[N+]=[N-])[C@H](CO)O2)c(=O)n(Cc2cccc(Nc3ccnc4cc(Cl)ccc34)c2)c1=O ; cells: HeLa cells ; read by: MTT ; result: >100 µM

An empty or dashed field is not shown. Neighbouring rows are from separate reports.